## Percent effect of library compounds

From ChEMBL document CHEMBL3988442, “University of Dundee, Small-Polar-MMV Screening Library” (2021).

The filed quantity is “Percent Effect” (%). The record does not define 0% and 100%; most values in the screen are far below 50% and negative numbers occur (in some assays of this library far below -100). Many other results are left out here, so strong results are more common than in the screen.

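Growth of Mycobacterium tuberculosis over 4 days (cholesterol / DPPC medium with tyloxapol); the read-out is not stated. Compounds at 500 µM. The record gives no direction; compounds that gave an IC50 in retests scored well above the rest, so higher reads as more growth inhibition. Of about 18,000 compounds tested this way, about 900 (5%) reached 50% or more in at least one test.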

compound,percent effect
O=C(CC1CCS(=O)(=O)C1)NCCc1ccc(F)cc1 (stereo unspecified),0.956
CN(C)c1cc(CNc2ccc(C#N)cn2)ccn1,70.54
NCC1CCSCC1,-0.8178
CCCc1ccc(CN2CCOCC(CO)C2)o1 (stereo unspecified),-4.582
N[C@@H]1C[C@@H](N2CCOCC2)C12CCC2,1.654
CNC(=O)C1CCCN(C(=O)C(C)(C)C)C1 (stereo unspecified),-5.71
Cc1ccoc1C(=O)N1CCCC(O)(CN(C)C)CC1 (stereo unspecified),8.889
COc1ccc(CNCc2ccc(C(N)=O)cc2)cc1,0.9661
Cc1nn(C)cc1C(=O)N1C[C@@H](CO)[C@H](N(C)C)C1,2.191
OCC1CCCN(Cc2ccccc2)C1 (stereo unspecified),4.405
Cc1cc(CN2CCN(C(=O)N(C)C)CC2)on1,5.923
CCCc1nc(C(=O)N2CC(c3ccncc3)C2)cs1,65.14
Cc1ncc(CN2CCn3ccnc3C2)s1,-10.52
Cc1nc(-c2ccc(CN)o2)cs1,3.338
N#Cc1ccc(-c2nnc(CN3CCC(O)C3)o2)cc1 (stereo unspecified),5.947
CN1C(=O)[C@H]2CN(Cc3ccc(Cl)cc3)C[C@H]2C1=O,9.989
COC(=O)n1ncc(C#N)c1N,17.57
CN1CCN(C(=O)c2cc3ccccc3o2)CC1,2.329
NCCOc1ccc2c(c1)OCO2,12.2
NC(=O)C1(NC(=O)Nc2cccc(Br)c2)CC1,5.497
CCS(=O)(=O)NCCNS(=O)(=O)c1ccc(C)cc1Cl,14.13
CCC(C)c1cc(C(=O)Nc2ncccc2O)on1 (stereo unspecified),104.6
CC(C)Nc1cc(Cl)ccc1OCCS(C)(=O)=O,50.42
COCc1nn(CC(=O)N(C)C2CCCCC2)c(=O)o1,33.12
CC(Oc1ccc2c(c1)OCO2)C(=O)NC1CC1 (stereo unspecified),52.05
CN(C)c1nnc(SCCCC#N)s1,-1.797
CCOc1ccc(Cl)cc1CNCCNCCO,20.1
CC(C(N)=O)N1CCC(=Cc2ccccc2)CC1 (stereo unspecified),90.35
NC1CCN(Cc2ccc(F)c(F)c2)CC1,29.31
CN(C)CCOC1CCNC1 (stereo unspecified),5.36
COC(=O)CSc1nc2cc(F)c(F)cc2[nH]1,3.179
Cn1ccnc1-c1nnc(NCc2ncc(Cl)n2C)o1,-6.579
CCCS(=O)(=O)NCCOc1ccc(C#N)cc1,68.68
CC1Cc2ccccc2N1CCN (stereo unspecified),74.04
COCC(C)NC(=O)c1ccc(OC)c(F)c1 (stereo unspecified),33
CCC(=O)NCCNc1ccc2ccccc2n1,11.9
O=S(=O)(C1CC1)N1CCC(NCc2ccco2)CC1,-6.869
CN(Cc1ccco1)C(=O)CCc1ccc(C#N)cc1,95.38
CN(C(=O)Cn1ccccc1=O)C1CCS(=O)(=O)C1 (stereo unspecified),-17.79
CC(=O)NCCNCc1ccc(C#N)cc1,-6.498
CCCNC(=O)c1ccc(C(=O)OC)cc1,35.26
CCNC(=O)C1CCCN(c2ccncc2Cl)C1 (stereo unspecified),86.2
NCC(c1ccco1)N1CCCCC1 (stereo unspecified),6.904
Cc1ccc(NCc2cc[nH]n2)cc1S(C)(=O)=O,-10.26
CCS(=O)(=O)NCc1ccc(OC)cc1,30.83